{"sequences": {"note": "The chains behind the UniProt entries cited, without tags or fusion partners. Residues count along the entry.", "UniProt O24973, 3-225": "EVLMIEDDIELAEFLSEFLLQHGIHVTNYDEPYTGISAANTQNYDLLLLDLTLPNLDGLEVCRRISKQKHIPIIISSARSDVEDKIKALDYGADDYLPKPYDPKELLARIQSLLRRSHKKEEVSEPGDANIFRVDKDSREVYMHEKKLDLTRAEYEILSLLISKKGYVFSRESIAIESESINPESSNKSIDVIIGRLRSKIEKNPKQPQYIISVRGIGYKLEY"}, "source": "paper PMC11162790", "key": {"[1]": {"test_system": "sigma70-RNAP holoenzyme (Escherichia coli)", "test": "DNase I footprinting", "conditions": "300 nM, Buffer F: 50 mM Tris-acetate pH 7.5, 100 mM K-glutamate, 20 mM Mg-acetate, 5% glycerol, 0.1 ug poly dI-dC, 25 C, 30 min, commercial protein, label: TET on primer 485, probe letters rebuilt from the primers and the genome, part of a longer molecule"}, "[2]": {"target": "ArsR-nP (non-phosphorylated His6-ArsR) (Helicobacter pylori SMI109) (UniProt O24973)", "test": "competition with a labelled probe", "conditions": "up to 20 nM competitor vs 5 nM TET-PsabA; Buffer F: 50 mM Tris-acetate pH 7.5, 100 mM K-glutamate, 20 mM Mg-acetate, 5% glycerol, 0.1 ug poly dI-dC, 25 C, 30 min; EMSA 5-7 nM DNA, footprint 25 nM DNA; recombinant protein; residues 3-225; protein details: N-terminal His6 (pET28a), retained; probe letters rebuilt from the primers and the genome; part of a longer molecule"}, "[3]": {"target": "ArsR-P (phosphorylated His6-ArsR) (Helicobacter pylori SMI109) (UniProt O24973)", "test": "EMSA", "conditions": "Buffer F: 50 mM Tris-acetate pH 7.5, 100 mM K-glutamate, 20 mM Mg-acetate, 5% glycerol, 0.1 ug poly dI-dC, 25 C, 30 min, EMSA 5-7 nM DNA, footprint 25 nM DNA, recombinant protein, residues 3-225, protein details: N-terminal His6 (pET28a), retained, label: TET on primer 485, probe letters rebuilt from the primers and the genome, part of a longer molecule"}}, "note": "Construct, isoform or probe ends are uncertain for at least one entry."}
{"sequence": "TCTAGCAATGTGTGGCAACAACAAACGATCCGACAAAACTTCAGCGTTTTTAGGAATAAAGAAGTTTTTGTCAGTTACGCGTTCTTGTTTTAGTGTGGCTTCGTTCCCATTAAACACTGATGATAAAATTCAAAAGATGATTTTATCGTTACAAAAATCAACGCTTCTCTTGAGCTGCTACAGCTGGTTAGATTCTGATTTTTTTTTTTTTGAAATCCAATAAATTTATAGTAAAATTAGGTTCATTGTAAATATATTATCACTTCATGATATTCTTACAACAAAAACATTACTTTAAGGAACACTTTTATGAAAAAG (double strand) [PsabA region 3* (scrambled -77 to -48)]", "values": [{"measurement": "binding result", "setting": "[1]; core promoter -17 to +24", "result": "binds"}]}
{"sequence": "CTTATCTAACTCTTTTGGGGTGAGTTTCATCTCATTCTCCTATTCTTAAAGTGTTTTTCCTTGAAGACATAACGAAATCAAGGTTGGATGTAATTGTAGCAATCTTTTGATTTACTAAGATTAACAGAAGCGCTCATTAACTAATTATTATTTAAAATGAATTAGTGTTATAGTTTTGAAGCGCTATAAAAGCGTTATTGGGAGCGCGTTTAATACCCCTTTAGAATTTATAAAGATCAAAAACTCGCAAAAAAATGAGAATTAAAATTGGAGTGATAATGGTGGCCACGACTGGACTTGAACCAGCGGCCACTACCATGTCAAGGTAGTGCTCTA (double strand) [PureA competitor 424 bp]", "values": [{"measurement": "binding result", "setting": "[2]", "result": "binds"}]}
{"sequence": "TCTAGCAATGTGTGGCAACAACAAACGATCCGACAAAACTTCAGCGTTTTTAGGAATAAAGAAGTTTTTGTCAGTTACGCGTTCTTGTTTTAGTGTGGCTTCGTTCCCATTAAACACTGATGATAAAATTCAAAAGATGATTTTATCGTTACAAAAATCAACACTTCAAAGATAAATAGGTTAAAATACTCCAAAATCTTTTTTTTTTTTTGAAATCCAATAAATTTATAGTAAAATTAGGTTCTGATCATGAGAATGTGAACTGACAACATAGTCATAGTCAAAAACATTACTTTAAGGAACACTTTTATGAAAAAG (double strand) [PsabA region 4* (scrambled +2 to +38)]", "values": [{"measurement": "half-maximal binding", "setting": "[3]", "result": 1390, "unit": "nM"}, {"measurement": "binding result", "setting": "[1]; core promoter -34 to +14", "result": "binds"}]}
